PubChem BioAssay AID1259414, Drosophila RNAi Screening Center | 2018
Assay: 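Host factors increasing or decreasing Wolbachia levels in cultured fly cells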 (primary screen). Cells: Drosophila JW18 cells infected with Wolbachia. Knock-down reagent: long dsRNA against Drosophila genes, 0.25 µg dsRNA per well of a 384-well plate. Time to read-out: 5 days. Conditions: cells persistently infected with Wolbachia before knock-down; no added drug. Measured: 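Automated imaging of bacterial rRNA staining divided by host cell count, reported as plate-normalised robust z-score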. Direction: Wolbachia per cell robust z: higher = more Wolbachia per host cell than the plate typical. Hit rule: 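Active if absolute robust z reaches 1.5 in two or more of three replicates, leaving out multi- or no-target dsRNAs, genes unexpressed in JW18 and A1 wells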.
The screen tested about 24,000 reagents; shown is an unselected part of those with a known target gene and a result. Of all reagents, about 1,210 (5%) were called active. 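Inactive calls also include excluded dsRNAs with several or no targets, genes unexpressed in JW18, and well A1, regardless of score.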 The numbers tell different reagents against one gene apart. Names joined by + are all predicted targets of the reagent.

no.	gene	reagent no.	Wolbachia per cell robust z, rep 1	Wolbachia per cell robust z, rep 2	Wolbachia per cell robust z, rep 3	call
1	CG8565	1	0.822	1.14	0.288	inactive
2	PAN3	1	-0.0847	-0.0281	0.707	inactive
3	PAN3	2	-1.03	-0.316	-0.813	inactive
4	PAN3	3	1.04	-0.0607	0.911	inactive
5	Cpsf6	1	1.31	-1.24	-0.161	inactive
6	CG10562	1	0.395	-0.515	0.927	inactive
7	CG10562	2	0.706	-0.378	0.00484	inactive
8	CG13086	1	0.355	0.933	2.96	inactive
9	CG13086	2	2.06	1.19	-0.331	inactive
10	Ktch	1	-1.13	0.346	0.749	inactive
11	Ktch	2	0.872	0.299	1.42	inactive
12	CG10081	1	-0.384	-1.91	-0.0343	inactive
13	CG10081	2	0.712	-0.403	-2.39	inactive
14	Obp28a	1	-0.141	2.23	1.04	inactive
15	Obp28a	2	-0.52	0.224	-2.26	inactive
16	Cpr72Ec	1	0.0724	0.947	-0.368	inactive
17	sdk	1	-0.637	-0.79	-0.576	inactive
18	l(2)k09848	1	-0.481	-0.251	0.413	inactive
19	CG43867	1	-1.71	0.0884	-0.91	inactive
20	CG43867	2	-0.8	-7.11	-2.05	active
21	CG43867	3	-2.03	0.13	0.105	inactive
22	CG43867	4	0.475	-1.56	0.629	inactive
23	CG43867	5	0.656	-0.807	0.393	inactive
24	CG43867	6	0.276	-0.291	0.672	inactive
25	Grl36a	1	-1.84	-1.53	-0.918	inactive
26	CG1894	1	0.00761	0.5	-0.414	inactive
27	CG13659	1	-3.66	0.822	0.0969	inactive
28	CG13659	2	0.168	-0.745	0.168	inactive
29	lncRNA:CR32730	1	-4.63	-0.132	0.363	inactive
30	FucTA	1	-0.182	-0.87	-7.32	inactive
31	CG10749	1	1.02	-0.788	0.115	inactive
32	CG10749	2	-0.362	-3.59	-1.17	inactive
33	CG13983	1	1.1	0.0444	0.557	inactive
34	CG13983	2	0.807	-0.296	1.1	inactive
35	CG6454	1	-0.238	-1.04	-0.00697	inactive
36	CG6454	2	0.336	-1.26	-7.12	inactive
37	CG42655	1	-2.68	-0.117	-0.677	inactive
38	CG14207	1	-0.437	0.051	-0.818	inactive
39	CG14207	2	-1.04	0.231	0.74	inactive
40	CG30377	1	0.4	1.12	0.107	inactive
41	CG30377	2	-0.19	1.03	-1.03	inactive
42	RpL14	1	1.07	0.533	2.36	inactive
43	asRNA:CR43467 + Or46a	1	-0.448	-0.308	-0.551	inactive
44	asRNA:CR43467 + Or46a	2	-3.72	0.686	0.19	inactive
45	asRNA:CR43467 + Or46a	3	0.982	1.25	1.11	inactive
46	CG13064	1	1.47	-0.993	1.21	inactive
47	CG15353	1	-0.619	-0.215	0.222	inactive
48	CG15353	2	1.78	-0.304	-0.02	inactive
49	CG10126	1	-1.91	-0.925	-0.941	inactive
50	ac	1	-1.31	-0.227	-0.0823	inactive
51	ac	2	-0.573	0.266	-0.435	inactive
52	ppk6	1	0.888	-1.41	0.577	inactive
53	ppk6	2	-0.641	-0.826	-0.94	inactive
54	ppk6	3	-0.141	-0.758	-2.63	inactive
55	CG15096	1	-0.72	-0.612	0.705	inactive
56	CG15096	2	0.288	-0.192	-8.04	inactive
57	Acp63F	1	1.34	1.04	-2.32	inactive
58	stl	1	0.582	-0.816	0.101	inactive
59	CG8303	1	-1.1	0.285	0.239	inactive
60	Egfrap	1	-0.844	-0.128	-0.411	inactive
61	Egfrap	2	-0.472	0.945	-0.365	inactive
62	Egfrap	3	-0.12	0.174	0.661	inactive
63	CG14572	1	-1.15	0.326	-0.0928	inactive
64	CG14223	1	-0.559	-0.0452	-1.62	inactive
65	CG14223	2	1.44	1.64	1.71	active
66	Sfp70A4	1	1.13	1.13	-1.37	inactive
67	Scp1	1	-0.19	0.607	-0.891	inactive
68	Scp1	2	0.93	-0.304	-0.242	inactive
69	Scp1	3	0.493	0.374	0.393	inactive
70	AIMP1	1	-0.00991	-0.721	0.247	inactive
71	AIMP1	2	-0.0814	-0.435	-0.37	inactive
72	pkaap	1	-1.78	-1.33	-1.54	active
73	CheB38c	1	0.41	0.947	0.841	inactive
74	zip	1	-2.18	0.565	-1.95	active
75	zip	2	0.116	0.0346	0.458	inactive
76	zip	3	0.573	0.344	1.4	inactive
77	PK1-R	1	-0.357	-1.84	-0.587	inactive
78	Dgp-1	1	0.45	1.04	-0.00856	inactive
79	Khc	1	-1.32	0.724	-2.04	inactive
80	Khc	2	-0.693	0.599	0.86	inactive
81	Acp62F	1	-0.707	1.11	-2.05	inactive
82	CARPA	1	-1.8	0.405	-0.382	inactive
83	CARPA	2	-0.113	-0.119	1.36	inactive
84	ergic53	1	0.944	1.54	0.974	inactive
85	CG18508	1	-0.558	0.275	0.681	inactive
86	CG18508	2	-0.838	-8.32	-3.62	active
87	CG9168	1	-0.316	0.0639	-1.09	inactive
